Reference: patent US10022359B2, “1,9-diazaspiro undecane compounds having multimodal activity against pain” (dated 2018)

The compounds below were run on human σ1 receptor and human μ-opioid receptor (assay: Human σ1 receptor and human μ-opioid receptor radioligand assays (dual binding)). Conditions: read-out: μ and σ1 dual binding; combined class for Ki-μ ([3H]-DAMGO, transfected CHO-K1 membranes) and Ki-σ1 ([3H](+)-pentazocine, transfected HEK-293 membranes).
In the case of COc1ccc(CCN2CCC3(CC2)COCCN3Cc2ccccc2)cc1, the Ki is reported as < 500 nM.
O=C(c1ccccc1)N1CCOCC12CCN(CCc1ccccc1)CC2 was tested, and the Ki was < 500 nM.
In the case of COc1cccc(CCN2CCC3(CC2)COCCN3Cc2ccccc2)c1, the Ki is reported as < 500 nM.
In the case of c1ccc(CCN2CCC3(CC2)COCCN3CCc2ccccc2)cc1, the Ki is reported as < 500 nM.
With Oc1cccc(CN2CCOCC23CCN(CCc2ccccc2)CC3)c1 the Ki was < 500 nM.
c1ccc(CCN2CCC3(CC2)COCCN3Cc2ccccc2)cc1 was tested, and the Ki was < 100 nM.
For c1ccc(CCN2CCC3(CC2)COCCN3Cc2cccnc2)cc1, the Ki was < 500 nM.
For c1ccc(CN2CCOCC23CCN(CCc2cccnc2)CC3)cc1, the Ki was < 500 nM.
Oc1ccc(CCN2CCC3(CC2)COCCN3Cc2ccccc2)cc1 was tested, and the Ki was < 100 nM.
Oc1ccccc1CCN1CCC2(CC1)COCCN2Cc1ccccc1 was tested, and the Ki was < 500 nM.
For Oc1ccccc1CN1CCOCC12CCN(CCc1ccccc1)CC2, the Ki was < 500 nM.
c1ccc(CCN2CCC3(CC2)COCCN3Cc2ccccn2)cc1 was tested, and the Ki was < 500 nM.
For COc1cccc(CN2CCOCC23CCN(CCc2ccccc2)CC3)c1, the Ki was < 500 nM.
c1ccc(CCN2CCC3(CC2)COCCN3Cc2ccncc2)cc1 was tested, and the Ki was < 500 nM.
In the case of Oc1cccc(CCN2CCC3(CC2)COCCN3Cc2ccccc2)c1, the Ki is reported as < 100 nM.
CS(=O)(=O)Nc1cccc(CN2CCOCC23CCN(CCc2ccccc2)CC3)c1 was tested, and the Ki was < 500 nM.
With COc1ccccc1CCN1CCC2(CC1)COCCN2Cc1ccccc1 the Ki was < 500 nM.
